Anti-infective test results gathered from many reports (values: NIAID ChemDB through PubChem).

Common to all: whole-cell or culture tests; organism: Plasmodium falciparum

ECn: concentration that inhibits the pathogen or its effect by n%. Conditions beyond the fields shown may differ between rows. Blank or dashed fields: not listed here.

C=CCOc1ccc(CNC(C)C(O)c2ccccc2)cc1 ; strain: 3D7 ; cells: Erythrocytes ; read by: flow cytometry ; endpoint: EC50 ; result: 4.94 µM
O=C(CN1C(=O)SC(=Cc2ccc(F)c(F)c2)C1=O)N1CCN(c2ccccc2)CC1 ; strain: W2 ; changes: Chloroquine-resistant ; read by: fluorescence ; endpoint: EC50 ; result: >10 µM
CC1CCN(CCCCOc2ccc(C(=O)c3ccccc3)cc2)CC1 ; strain: K1 ; cells: Erythrocytes ; read by: flow cytometry ; endpoint: EC50 ; result: 6.1 µM
COc1cc(OC)c(C=C2SC(=O)N(CC(=O)N3CCN(C(=O)c4ccccc4)CC3)C2=O)c(OC)c1 ; strain: W2 ; changes: Chloroquine-resistant ; read by: fluorescence ; endpoint: EC50 ; result: 4.7 µM
CCc1ccc(OCCCCN(C)Cc2ccccc2)cc1 ; strain: K1 ; cells: Erythrocytes ; read by: flow cytometry ; endpoint: EC50 ; result: 4.74 µM
C/C=C1/CN2CCc3c([nH]c4ccccc34)C2C[C@@H]1C1=CN2c3ccccc3C34CCN5CC6=CCO[C@@H]1[C@@H]([C@H]23)[C@H]6C[C@H]54 ; strain: 3D7 ; endpoint: EC90 ; result: 1.415 µg/mL
Cc1cccc2c(Nc3ccc(S(N)(=O)=O)cc3)c3ccc([N+](=O)[O-])cc3nc12 ; strain: K1 ; cells: Erythrocytes ; read by: flow cytometry ; endpoint: EC50 ; result: 0.5332 µM
C=C1CN2CCC34c5ccccc5N5C=C([C@H]6CC7C8=C(CCN7C/C6=C/C)C6C=CC=CC6N8)[C@@H](O)[C@@H]([C@H]53)[C@H]1C[C@]24O ; strain: 3D7 ; endpoint: EC90 ; result: 15.1 µg/mL
COc1cc(OC)c(C=C2SC(=O)N(CC(=O)O)C2=O)c(OC)c1 ; strain: W2 ; changes: Chloroquine-resistant ; read by: fluorescence ; endpoint: EC50 ; result: >10 µM
CC1(C)O[C@@H]1COc1c2occc2cc2ccc(=O)oc12 ; strain: CQ-resistant ; cells: RBC ; endpoint: EC90 ; result: 20.5 µg/mL
c1ccc(Cc2ccccc2OCCCCn2cccc2)cc1 ; strain: 3D7 ; cells: Erythrocytes ; read by: flow cytometry ; endpoint: EC50 ; result: 8.151 µM
C[C@H]1[C@@H](OC(=O)CCC(=O)O)O[C@@H]2O[C@@]3(C)CC[C@H]4[C@H](C)CC[C@@H]1[C@@]24OO3 ; strain: FCM29 ; cells: human red blood cells ; read by: broth dilution / radiometric ; endpoint: EC50 ; result: 0.0031 µM
O=c1c(O[C@@H]2O[C@H](CO)[C@H](O)[C@H](O)[C@H]2O)c(-c2ccc(O)c(O)c2)oc2cc(O)cc(O)c12 ; strain: Clinical isolates ; endpoint: EC90 ; result: 113 µM
C/C=C1/CN2CCC34c5ccccc5N5C(OC)C67OC(C([C@H]53)[C@H]1C[C@H]24)N1c2ccccc2C2(CCN3C/C(=C/C)[C@@H]6C[C@H]32)[C@@H]17 ; strain: W2 ; endpoint: EC90 ; result: 2.969 µg/mL
C[C@@H]1CC[C@H]2[C@@H](C)C(=O)O[C@@H]3OC4(C)CC[C@@H]1[C@]32OO4 ; strain: F32 ; cells: human red blood cells ; read by: broth dilution / radiometric ; endpoint: EC50 ; result: 0.0123 µM
O=C(CN1C(=O)SC(=Cc2ccccc2Br)C1=O)N1CCN(c2ccccc2)CC1 ; strain: W2 ; changes: Chloroquine-resistant ; read by: fluorescence ; endpoint: EC50 ; result: >10 µM

The first 2 rows once more:

SMILES | strain | changes | cells | read by | endpoint | result
C=CCOc1ccc(CNC(C)C(O)c2ccccc2)cc1 | 3D7 |  | Erythrocytes | flow cytometry | EC50 | 4.94 µM
O=C(CN1C(=O)SC(=Cc2ccc(F)c(F)c2)C1=O)N1CCN(c2ccccc2)CC1 | W2 | Chloroquine-resistant |  | fluorescence | EC50 | >10 µM